The target in assay [1] is Yellow fever virus pr protein (N-terminal furin fragment of prM) (UniProt Q6DV88). Put plainly: surface plasmon resonance (Biacore T200). To be noted: 25 °C, not stated (supplement). On the technique in general: SPR reads the build-up and loss of mass on a sensor chip optically.
For assay [2] the target is unchanged. Nature of the assay: isothermal titration calorimetry (ITC). To be noted: 25 °C, 150 mM NaCl, 50 mM Tris, 50 mM MES (same mixed buffer at pH 6, 7 and 8).

Regarding “Yellow fever virus envelope protein E, soluble ectodomain (sE)”, the K off in assay [1] (pH 6) is 23.6 10^-4 s^-1; in assay [1] (pH 8), 13.4 10^-4 s^-1. In addition, the K on (10^5 M^-1.s^-1) in assay [1] (pH 6) stood at 3.8; in assay [1] (pH 8) it was 0.7. The ΔG in assay [1] (pH 6) is -11.2 kcal/mol; in assay [1] (pH 8) it was -10.5 kcal/mol; in assay [2] (pH 6), -11 kcal/mol; in assay [2] (pH 8), -9.9 kcal/mol.

Source of the values: paper PMC10653854, “New insight into flavivirus maturation from structure/function studies of the yellow fever virus envelope protein complex” (2023).
